Anti-infective test results gathered from many reports (values: NIAID ChemDB through PubChem).

All rows: growth or infection tests; agent: Candida albicans; read-out: MIC

Rows are shuffled and stem from different studies. Blank or dashed fields: not listed here.

| SMILES | strain | result |
|---|---|---|
| CCCCCC1C=C(c2cccc(Cl)c2)C(=O)O1 | ATCC 44859 | >125 µM |
| Cc1ccc(C(=O)CSc2nc3c(sc(=S)n3-c3ccccc3)c(=O)n2C)cc1 | ATCC 90018 | 64 µg/mL |
| CCCOc1ccc(NC(=O)OCC(O)CN2CCN(c3cccc(F)c3)CC2)cc1 | CCM 8186 | 390 µg/mL |
| O[C@](Cn1cncn1)(Cn1cnc(/C=C/c2ccc(OCC(F)(F)C(F)F)cc2)n1)c1ccc(F)cc1F | Isolate 08-31 | 1 µg/mL |
| CC1C=C(c2ccc(Br)c(Br)c2)C(=O)O1 | ATCC 44859 | >125 µM |
| C[C@]12C=C[C@H]3[C@@](C)(C(=O)O)CCC[C@]3(C)C1CC(=O)O2 | CECT 1394 | >100 µg/mL |
| Cn1c(=S)[nH]c2c(sc(=S)n2-c2ccccc2)c1=O | ATCC 90018 | 4 µg/mL |
| CO[C@@H](n1cncn1)[C@@](O)(Cn1cccn1)c1ccc(F)cc1F | - | >100 µg/mL |
| c1cc(-c2cc3ccc(C4=NCCN4)cc3s2)ccc1C1=NCCN1 | - | >60 µg/mL |
| CO[C@@H](n1cncn1)[C@](O)(Cn1ccnc1)c1ccc(Cl)cc1Cl | - | >100 µg/mL |
| COC(=O)[C@@]1(C)CCC[C@]2(C)C3=CC(=O)OCC3C=C[C@@H]12 | CECT 1394 | <6.25 µg/mL |
| CCCOc1ccc(NC(=O)OCC(O)CN2CCN(c3ccc(F)cc3)CC2)cc1 | CCM 8186 | 390 µg/mL |
| N=C(N)c1ccc(-c2cnc(-c3ccc(C(=N)N)cc3)[nH]2)cc1 | - | >60 µg/mL |
| CO[C@@H](n1cncn1)[C@](O)(Cn1ccnc1)c1ccc(Cl)cc1 | - | >100 µg/mL |
| CCC(C)n1ncn(-c2ccc(N3CCN(c4ccc(OC[C@H]5CO[C@](Cn6cncn6)(c6ccc(Cl)cc6Cl)O5)cc4)CC3)cc2)c1=O | ATCC 90028 | 0.12 µg/mL |
| CC1C=C(c2ccc(Cl)cc2)C(=O)O1 | ATCC 44859 | >125 µM |
| N=C(N)c1ccc2oc(-c3ccc(C4=NCCN4)cc3)cc2c1 | - | >60 µg/mL |
| CO[C@@H](n1cccn1)[C@](O)(Cn1ccnc1)c1ccc(F)cc1F | - | >100 µg/mL |
| Cl.Cl.O=C(Nc1ccc(C2=NCCN2)cc1)c1ccc(C(=O)Nc2ccc(C3=NCCN3)cc2)cc1 | - | >60 µg/mL |
| CO[C@@H](n1cncn1)[C@](O)(Cn1ccnc1)c1ccc(F)cc1F | - | >100 µg/mL |
| Cn1c(SCC(=O)c2ccccc2)nc2c(sc(=S)n2-c2ccccc2)c1=O | ATCC 90018 | 128 µg/mL |
| N=C(N)c1ccc(-c2ccc(-c3ccc(C(=N)N)cc3)o2)cc1 | - | >60 µg/mL |
| CO[C@H]1OC(=O)C=C2C1=CC1OC(=O)[C@@]3(C)CCC[C@@]2(C)[C@@H]13 | CECT 1394 | <3.12 µg/mL |
| CCCCCC(=O)O[C@H]1[C@H](OC(=O)CCCCC)[C@H](OCC23C4C=C(C(C)C)C2(C(=O)O)C(C=O)(C4)[C@@H]2CC[C@@H](C)[C@H]23)O[C@H](C)[C@H]1OC | 2005 | 4 µg/mL |
| Cc1c(O)cccc1C(=O)N[C@@H](CSc1ccccc1)[C@H](O)CN1C[C@H]2CCCC[C@H]2C[C@H]1C(=O)NC(C)(C)C | I109A | >64 µg/mL |
| CC1=CC2OC(=O)[C@@]3(C)CCC[C@@](C)([C@@H]23)[C@H]1CC=O | CECT 1394 | >100 µg/mL |
| CCC(C)CC(C)CCCCCCCCC(=O)N[C@H]1C[C@@H](O)[C@H](NCCN)NC(=O)[C@@H]2[C@@H](O)CCN2C(=O)[C@H]([C@H](O)CCN)NC(=O)[C@H]([C@H](O)[C@@H](O)c2ccc(O)cc2)NC(=O)[C@@H]2C[C@@H](O)CN2C(=O)[C@H]([C@@H](C)O)NC1=O | 40 isolates | 16 µg/mL |
| N=C(N)c1ccc(/C=C/c2cc3cc(C(=N)N)ccc3o2)cc1 | - | 30 µg/mL |
| COc1cc(O)c2c(c1)C(=O)c1c(cc3c(c1O)-c1c(cc(C)c(C(=O)NCC(=O)O)c1O)[C@H](OC1OC(C)C(N(C)C)C(OC4OCC(O)C(O)C4O)C1O)[C@H]3O)C2=O | ATCC 32354 (B311) | 3.1 µg/mL |
| C[C@@]12CCC[C@]3(C)C4CC(=O)OCC4=CC(OC1=O)[C@@H]23 | CECT 1394 | >100 µg/mL |
| O=C(CSc1nc2c(sc(=S)n2-c2ccccc2)c(=O)n1-c1ccccc1)c1ccc(Cl)cc1 | ATCC 90018 | 128 µg/mL |
| CCCCCC1C=C(c2ccc(Cl)c(Cl)c2)C(=O)O1 | ATCC 44859 | >125 µM |
| C[C@@H]1CCC2(OC1)OC1CC3C4C[C@H](OC5O[C@@H](CO)[C@H](O)[C@@H](O)[C@@H]5O)[C@H]5C[C@@H](OC6O[C@H](CO)[C@@H](O)[C@H](O)[C@H]6O)CC[C@]5(C)C4CC[C@]3(C)C1[C@@H]2C | ATCC 90028 | 20 µg/mL |
| CCC1C=C(c2cccc(Cl)c2)C(=O)O1 | ATCC 44859 | >125 µM |
| CCCCOc1ccc(NC(=O)OCC(O)CN2CCN(c3cccc(F)c3)CC2)cc1 | CCM 8186 | 200 µg/mL |
| CCn1c(SCC(=O)c2ccc(C)cc2)nc2c(sc(=S)n2-c2ccccc2)c1=O | ATCC 90018 | 64 µg/mL |
| CC1C=C(c2cc3ccccc3n2C)C(=O)O1 | ATCC 44859 | >125 µM |

Repeating the final 4 entries:

CCC1C=C(c2cccc(Cl)c2)C(=O)O1 ; strain: ATCC 44859 ; result: >125 µM
CCCCOc1ccc(NC(=O)OCC(O)CN2CCN(c3cccc(F)c3)CC2)cc1 ; strain: CCM 8186 ; result: 200 µg/mL
CCn1c(SCC(=O)c2ccc(C)cc2)nc2c(sc(=S)n2-c2ccccc2)c1=O ; strain: ATCC 90018 ; result: 64 µg/mL
CC1C=C(c2cc3ccccc3n2C)C(=O)O1 ; strain: ATCC 44859 ; result: >125 µM